# Assay results published in ChEMBL document CHEMBL3808367, “Novel HIV-1 Non-nucleoside Reverse Transcriptase Inhibitor Agents: Optimization of Diarylanilines with High Potency against Wild-Type and Rilpivirine-Resistant E138K Mutant Virus” (J Med Chem, 2016).
# Test: Selectivity index, ratio of CC50 for human TZM-bl cells to EC50 for HIV1 3B infected in human MT2 cells
# Type: toxicity, cell-based
compound,measurement,value
Cc1cc(CCC#N)cc(C)c1Oc1cc(Nc2ccc(C#N)cc2)c(N)cc1Br,Ratio CC50/EC50,160000
